Measured values as given in US7592316B2, “Peptides as NS3-serine protease inhibitors of hepatitis C virus” (Schering Corporation, priority 2000, dated 2009).
Read-outs that look alike come from different tables or passages of the source.

Sequences of proteins named here, by UniProt entry; tags and fusion partners are left off. Residues count along the entry.
UniProt P27958, 1027-1657 limits assumed: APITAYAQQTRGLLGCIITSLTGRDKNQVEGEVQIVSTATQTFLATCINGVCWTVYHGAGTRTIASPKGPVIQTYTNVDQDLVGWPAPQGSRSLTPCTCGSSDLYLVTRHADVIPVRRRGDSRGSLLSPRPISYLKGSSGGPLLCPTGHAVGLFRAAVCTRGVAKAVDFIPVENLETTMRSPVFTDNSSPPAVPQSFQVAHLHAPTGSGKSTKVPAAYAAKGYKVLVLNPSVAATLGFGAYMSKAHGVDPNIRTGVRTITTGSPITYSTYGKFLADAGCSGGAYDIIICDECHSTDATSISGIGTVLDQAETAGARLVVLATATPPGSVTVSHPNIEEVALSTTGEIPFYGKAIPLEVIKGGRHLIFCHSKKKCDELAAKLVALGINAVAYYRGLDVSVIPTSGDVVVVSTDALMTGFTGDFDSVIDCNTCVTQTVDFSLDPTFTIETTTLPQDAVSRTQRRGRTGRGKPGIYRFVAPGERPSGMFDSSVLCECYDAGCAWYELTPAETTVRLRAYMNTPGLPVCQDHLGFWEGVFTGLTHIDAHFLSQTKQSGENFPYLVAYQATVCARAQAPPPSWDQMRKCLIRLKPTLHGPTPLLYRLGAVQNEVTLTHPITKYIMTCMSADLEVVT
UniProt P27958, 1658-1711 partner limits assumed: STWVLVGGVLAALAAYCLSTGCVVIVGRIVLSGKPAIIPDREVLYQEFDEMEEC

Biological target: HCV NS3/NS4A protease (strain 1a) (Hepatitis C virus genotype 1a, UniProt P27958)
[1] = read-out: Ki* Range, Table 5, HCV NS3/NS4A protease, 30° C., pH 6.5
[2] = read-out: Ki* Range, Table 5, HCV NS3/NS4A protease, spectrophotometric assay, 30° C., pH 6.5
[3] = read-out: Ki* Range, Table 4, HCV NS3/NS4A protease, spectrophotometric assay, 30° C., pH 6.5
[4] = Table 6, HCV NS3/NS4A protease, 30° C., pH 6.5

Work on C=CCCC(NC(=O)[C@@H]1C2C(CN1C(=O)[C@@H](NC(=O)NC13CC4CC(CC(C4)C1)C3)C1Cc3ccccc3C1)C2(C)C)C(=O)C(=O)NCC=C (stereo partly drawn) yielded a Ki [1] of 0.101 to 1 µM.
C#CCNC(=O)CNC(=O)C(=O)C(CCC)NC(=O)[C@@H]1[C@@H]2[C@H](CN1C(=O)[C@@H](NC(=O)OC(C)(C)C)C(C)(C)C)C2(C)C (single isomer, unassigned) gave a Ki [2] of 0.101 to 1 µM.
CCCC(NC(=O)[C@@H]1CCC(C)N1C(=O)[C@@H](NC(=O)OCC(C)C)C1CCCCC1)C(=O)C(=O)NCC(=O)NC(C(=O)O)c1ccccc1 (stereo partly drawn) was tested, and the Ki [3] was 0.001 to 0.1 µM.
Compound CCCC(NC(=O)C1CC2(CCCC2)CN1C(=O)[C@@H](NC(=O)OCC(C)C)C1CCCCC1)C(=O)C(=O)NCC(=O)N[C@H](C(=O)O)c1ccccc1 (stereo partly drawn) has a Ki [3] of 0.001 to 0.1 µM.
C=CCCC(NC(=O)[C@@H]1C2C(CN1C(=O)[C@@H](NC(=O)NCC13CC4CC(CC(C4)C1)C3)C1Cc3ccccc3C1)C2(C)C)C(=O)C(=O)NCC=C (stereo partly drawn) showed a Ki [1] of 0.101 to 1 µM.
With CCCC(NC(=O)[C@@H]1C[C@@H](c2ccccc2)CN1C(=O)[C@@H](NC(=O)OC(C)(C)C)C1CCCCC1)C(=O)C(=O)NCC(=O)N[C@H](C(=O)O)c1ccccc1 (stereo partly drawn) the Ki (read-out: Ki* Range, HCV protease continuous assay results, Table 1) was over 1 µM.
Compound CC(C)COC(=O)N[C@H](C(=O)N1CC(C)(C)C[C@H]1C(=O)NC(CC(C)C)C(=O)C(=O)NCC(=O)NC(C(=O)N(C)C)c1ccccc1)C(C)(C)C (stereo partly drawn) has a Ki [3] of 0.001 to 0.1 µM.
In the case of C=CCC(NC(=O)[C@@H]1[C@@H]2[C@H](CN1C(=O)[C@@H](NC(=O)OC(C)(C)C)C(C)(C)C)C2(C)C)C(=O)C(=O)NCC(=O)NCc1ccccn1 (stereo partly drawn), the Ki [2] is reported as 0.101 to 1 µM.
CN(C)C(=O)[C@@H](NC(=O)CNC(=O)C(=O)C(CCC(F)(F)F)NC(=O)[C@@H]1[C@H]2CC(C)(C)O[C@H]2CN1C(=O)[C@@H](NC(=O)OC(C)(C)C)C1CCCCC1)c1ccccc1 (stereo partly drawn) was tested, and the Ki [4] was 0.001 to 0.1 µM.
Compound CCCC(NC(=O)[C@@H]1CC(C)(C)CN1C(=O)C(NC(=O)OC(C)(C)C)C(C)(C)C)C(=O)C(=O)NCC(=O)NC(C)c1ccccc1 (stereo partly drawn) has a Ki [2] of over 1 µM.
CCCC(NC(=O)C1C[C@@H](O)CN1C(=O)[C@@H](NC(=O)OCC)C1CCCCC1)C(=O)C(=O)NCC(=O)N[C@H](C(=O)O)c1ccccc1 (stereo partly drawn) showed a Ki [3] of 0.101 to 1 µM.
Compound CN(C)C(=O)[C@@H](NC(=O)CNC(=O)C(=O)C(CC1CCCC1)NC(=O)C1[C@H]2CC(C)(C)O[C@H]2CN1C(=O)[C@@H](NC(=O)OC(C)(C)C)C(C)(C)C)c1ccccc1 (stereo partly drawn) has a Ki [4] of 0.001 to 0.1 µM.
CCCC(NC(=O)[C@@H]1[C@@H]2[C@H](CN1C(=O)[C@@H](NC(=O)OCC(C)C)C1CCCCC1)[C@@H]2C(=O)OCC)C(=O)C(=O)NCC(=O)NC(C(=O)N(C)C)c1ccccc1 (stereo partly drawn) showed a Ki [3] of 0.001 to 0.1 µM.
With C=CCCC(NC(=O)[C@@H]1C2C(CN1C(=O)[C@@H](NC(=O)OC13CC4CC(CC(C4)C1)C3)C1Cc3ccccc3C1)C2(C)C)C(=O)C(=O)NCC=C (stereo partly drawn) the Ki [1] was 0.101 to 1 µM.
Work on C=CCCNC(=O)C(=O)C(CC1CC1)NC(=O)[C@@H]1[C@@H]2[C@H](CN1C(=O)[C@@H](NC(=O)OC(C)(C)C)C1CCCCC1)C2(C)C (stereo partly drawn) yielded a Ki [2] of over 1 µM.
With C=CCNC(=O)C(=O)C(CCC)NC(=O)[C@@H]1[C@@H]2[C@H](CN1C(=O)[C@H](CC(C)(C)C)NC(=O)OC(C)(C)C)C2(C)C (stereo partly drawn) the Ki [2] was over 1 µM.
Work on NC(=O)C(=O)C(CC1CCC1)NC(=O)[C@@H]1[C@@H]2[C@H](CN1C(=O)[C@@H](NC(=O)OC1CC3CCC1C3)C1CCCCC1)C2(Cl)Cl (stereo partly drawn) yielded a Ki [4] of 0.001 to 0.1 µM.
Compound CCCC(NC(=O)[C@@H]1[C@@H]2[C@H](CN1C(=O)[C@@H](NC(=O)OCC(C)C)C1CCCCC1)[C@H]2C(=O)OCC)C(=O)C(=O)NCC(=O)NC(C(=O)N(C)C)c1ccccc1 (stereo partly drawn) has a Ki [3] of 0.001 to 0.1 µM.
